Anti-infective test results gathered from many reports (values: NIAID ChemDB through PubChem).

Shared fields: whole-cell or culture tests; species: HIV-1; cell line: MT-2; endpoint: EC50

ECn is the concentration giving n% inhibition of infection, replication or growth.

CC(C)C1=C2[C@H]3CC[C@@H]4[C@@]5(C)CC[C@H](OC(=O)CC(C)(C)C(=O)O)C(C)(C)[C@@H]5CC[C@@]4(C)[C@]3(C)CC[C@@]2(NC(=O)N2CCNCC2)CC1=O ; strain: IIIB ; read by: RT activity ; setting: 30% human serum ; result: <0.199 µM
CN(C(=O)[C@H](Cc1cc(F)cc(F)c1)NC(=O)NS(=O)(=O)N[C@@H](Cc1cc(F)cc(F)c1)C(=O)N(C)c1ccc(C(C)(C)C)cc1)c1ccc(C(C)(C)C)cc1 ; strain: NL4-3 ; read by: luciferase ; result: 0.15 µM
Nc1nc(NC2CC2)c2ncn([C@H]3C=C[C@@H](CO)C3)c2n1 ; strain: Clinical isolate ; mutations: A62V/T69ins/V75I/A98G/K103S/G190A ; read by: recombinant virus assay ; result: 1.496 µM
Cc1cc(F)ccc1OCCOc1ccc(-c2cnc(C)c([C@H](OC(C)(C)C)C(=O)O)c2N2CCC(C)(C)CC2)cn1 ; strain: NL4-3 ; read by: luminescence ; result: 0.0056 µM
COc1ccc(N(C)C(=O)[C@H](Cc2ccccc2)NC(=O)Cn2c(=O)c3ccccc3n(CC(=O)N[C@@H](Cc3ccccc3)C(=O)N(C)c3ccc(OC)cc3)c2=O)cc1 ; strain: NL4-3 ; read by: luciferase ; result: 0.07 µM
CC(C)C1=C2[C@H]3CC[C@@H]4[C@@]5(C)CC[C@H](OC(=O)[C@H]6C[C@@H](C(=O)O)C6(C)C)C(C)(C)[C@@H]5CC[C@@]4(C)[C@]3(C)CC[C@@]2(CC(=O)N(CCN(C)C)Cc2nccs2)CC1=O ; strain: 92HT599 ; read by: p24 / ELISA ; result: <1 µM
C#C[C@@]1(CO)C=C[C@H](n2cc(C)c(=O)[nH]c2=O)O1 ; strain: Clinical isolate ; mutations: M41L/D67N/K70R/Y184V/L210W/T215Y/K219E ; read by: recombinant virus assay ; result: 4.522 µM
Cc1ncc(-c2ccc(NCCOc3ccc(F)cc3C#N)cn2)c(N2CCC(C)(C)CC2)c1[C@H](OC(C)(C)C)C(=O)O ; strain: NL4-3 ; read by: luminescence ; result: 0.0794 µM
CC(C)C1=C2[C@H]3CC[C@@H]4[C@@]5(C)CC[C@H](OC(=O)[C@H]6C[C@@H](C(=O)O)C6(C)C)C(C)(C)[C@@H]5CC[C@@]4(C)[C@]3(C)CC[C@@]2(CCNCc2ccc3nc[nH]c3c2)CC1=O ; strain: 92HT599 ; read by: p24 / ELISA ; result: <1 µM
CN(C(=O)[C@H](Cc1ccccc1)NC(=O)CS(=O)(=O)N[C@@H](Cc1ccccc1)C(=O)N(C)c1ccc2scnc2c1)c1ccc2scnc2c1 ; strain: NL4-3 ; read by: luciferase ; result: 0.32 µM
[2H]C(CCCN)(CNC[C@H](O)[C@@]12CC[C@]3(C)[C@H](CC[C@@H]4[C@@]5(C)CC[C@H](OC(=O)[C@H]6C[C@@H](C(=O)O)C6(C)C)C(C)(C)[C@@H]5CC[C@]43C)C1=C(C(C)C)C(=O)C2)NC(=O)c1ccc(Cl)cc1 ; strain: 92HT599 ; read by: p24 / ELISA ; result: <1 µM
CCN(C(=O)[C@H](Cc1cc(F)cc(F)c1)NC(=O)CN1c2ccccc2N(CC(=O)N[C@@H](Cc2cc(F)cc(F)c2)C(=O)N(CC)c2ccc(OC(F)F)cc2)S1(=O)=O)c1ccc(OC(F)F)cc1 ; strain: NL4-3 ; read by: luciferase ; result: 0.09 µM
CC(C)C1=C2[C@H]3CC[C@@H]4[C@@]5(C)CC[C@H](OC(=O)[C@H]6C[C@@H](C(=O)O)C6(C)C)C(C)(C)[C@@H]5CC[C@@]4(C)[C@]3(C)CC[C@@]2(CCNC(=O)CN2CCCCC2)CC1=O ; strain: 92HT599 ; read by: p24 / ELISA ; result: <1 µM
CC(C)C1=C2C3CCC4[C@@]5(C)CC[C@H](OC(=O)CC(C)(C)C(=O)O)C(C)(C)C5CC[C@@]4(C)[C@]3(C)CC[C@@]2(NC(=O)c2nnc(-c3ccccc3)o2)CC1=O ; strain: IIIB ; read by: RT activity ; setting: 30% human serum ; result: <0.199 µM
Cc1ncc(-c2ccc(OCCC3CCCC3)cn2)c(N2CCC(C)(C)CC2)c1[C@H](OC(C)(C)C)C(=O)O ; strain: NL4-3 ; read by: luminescence ; result: 0.0009 µM
COc1ccc(N(C)C(=O)[C@H](Cc2ccccc2)NC(=O)CCSCCC(=O)N[C@@H](Cc2ccccc2)C(=O)N(C)c2ccc(OC)cc2)cc1 ; strain: NL4-3 ; read by: luciferase ; result: 0.1 µM
CC(C)C1=C2[C@H]3CC[C@@H]4[C@@]5(C)CC[C@H](OC(=O)[C@H]6C[C@@H](C(=O)O)C6(C)C)C(C)(C)[C@@H]5CC[C@@]4(C)[C@]3(C)CC[C@@]2(CC(=O)NCC(CCN)NC(=O)c2ccc(Cl)cc2)CC1=O ; strain: 92HT599 ; read by: p24 / ELISA ; result: <1 µM
Cc1ncc(-c2ccc(OCCN3CCSCC3)cn2)c(N2CCC(C)(C)CC2)c1[C@H](OC(C)(C)C)C(=O)O ; strain: NL4-3 ; read by: luminescence ; result: 0.0015 µM
CC(C)C1=C2[C@H]3CC[C@@H]4[C@@]5(C)CC[C@H](OC(=O)[C@H]6C[C@@H](C(=O)O)C6(C)C)C(C)(C)[C@@H]5CC[C@@]4(C)[C@]3(C)CC[C@@]2(CCNCC(F)(F)NC(=O)c2ccc(Cl)cc2)CC1=O ; strain: 92HT599 ; read by: p24 / ELISA ; result: <1 µM
Cc1ncc(-c2ccc(OCC3CCCCC3)cc2)c(N2CCC(C)(C)CC2)c1[C@H](OC(C)(C)C)C(=O)O ; strain: NL4-3 ; read by: luminescence ; result: 0.0523 µM
[2H]C(CCCCN)(CNCC[C@@]12CC[C@]3(C)[C@H](CC[C@@H]4[C@@]5(C)CC[C@H](OC(=O)[C@H]6C[C@@H](C(=O)O)C6(C)C)C(C)(C)[C@@H]5CC[C@]43C)C1=C(C(C)C)C(=O)C2)NC(=O)c1ccc(Cl)cc1 ; strain: 92HT599 ; read by: p24 / ELISA ; result: <1 µM
Cc1ncc(-c2cnc(OC(C)COCc3ccccc3)c(F)c2)c(N2CCC(C)(C)CC2)c1[C@H](OC(C)(C)C)C(=O)O ; strain: NL4-3 ; read by: luminescence ; result: 0.0025 µM

Repeating the first 2 entries:

SMILES	strain	mutations	read by	setting	result
CC(C)C1=C2[C@H]3CC[C@@H]4[C@@]5(C)CC[C@H](OC(=O)CC(C)(C)C(=O)O)C(C)(C)[C@@H]5CC[C@@]4(C)[C@]3(C)CC[C@@]2(NC(=O)N2CCNCC2)CC1=O	IIIB	-	RT activity	30% human serum	<0.199 µM
CN(C(=O)[C@H](Cc1cc(F)cc(F)c1)NC(=O)NS(=O)(=O)N[C@@H](Cc1cc(F)cc(F)c1)C(=O)N(C)c1ccc(C(C)(C)C)cc1)c1ccc(C(C)(C)C)cc1	NL4-3	-	luciferase	-	0.15 µM

An empty or dashed field is not shown. Rows are shuffled and stem from different studies.